Measured values from several laboratories, pooled; numbers as filed in NIAID ChemDB.

All rows: growth or infection tests; species: Mycobacterium tuberculosis

Blank or dashed fields: not listed here. A number after MIC or MFC names an inhibition level or a share of isolates. MIC bound comes from a single tested concentration. ECn: concentration that inhibits the pathogen or its effect by n%. Inhibition is in % at the dose shown (toxicity tests: loss of growth or viability). Neighbouring rows are from separate reports.

structure,strain or isolate,changes,dose,cell line,setting,method,read-out,result
CC1(C)C2CCC(CN3C(=O)c4ccccc4C3=O)C1C2,H37Rv,-,-,-,-,-,MIC,≤20 µg/mL
N#CC1CC(c2ccc([N+](=O)[O-])o2)=NO1,-,-,-,-,-,-,MIC,3 µg/mL
CC1=CC(=O)N(c2ccc(N3CCCCC3)cc2)C1=O,H37Rv,-,-,-,-,-,MIC,≤20 µg/mL
CCc1cc(C(=O)NN)c2ccccc2n1,H37Rv,-,12.5 µg/mL,-,-,BACTEC,inhibition,21%
CCc1nc(NC(C(=O)O)C(C)C)c2cc(C)sc2n1,Erdman,qcrCAB A178T,-,-,-,resazurin,EC50,>20 µM
NC(=O)c1c(-c2ccc([N+](=O)[O-])o2)noc1N,-,-,-,-,-,-,MIC,10 µg/mL
O=C(NC1CONC1=O)c1ccc(F)cc1,13PI,-,-,-,-,-,MIC,12.5 µg/mL
Nc1ccc(C(=O)O)c(O)c1,-,-,-,-,-,-,MIC,0.5 µg/mL
O=C1C2OC2C(O)(CCN(Cc2ccc3c(c2)OCO3)C(=O)C(F)(F)F)C2OC12,H37Rv,-,6.25 µg/mL,-,-,resazurin,inhibition,5%
CO[C@H]1/C=C/O[C@@]2(C)Oc3c(C)c(O)c4c(O)c(c(SCN5CCCC5)c(O)c4c3C2=O)NC(=O)/C(C)=C\C=C\[C@H](C)[C@H](O)[C@@H](C)[C@@H](O)[C@@H](C)[C@H](OC(C)=O)[C@@H]1C,-,-,-,-,-,-,MIC,0.05 µg/mL
Nc1c(C(=O)NCCc2ccccc2)c2nc3c(C(=O)NCCc4ccccc4)cccc3oc-2cc1=O,H37Rv,-,-,-,-,BACTEC,MIC bound,>12.5 µg/mL
O=C(NC1CONC1=O)c1cccc(C(F)(F)F)c1,12PI,-,-,-,-,-,MIC,50 µg/mL
CCCCCCCCCCN1C(=O)C=CC1=O,Clinical isolate (isoniazid-resistant),-,-,-,-,-,MIC,≤20 µg/mL
Cc1c(C(=O)N2CCN(c3ccccc3)CC2)[n+](=O)c2cc(Cl)c(Cl)cc2n1[O-],H37Rv,-,-,-,-,-,MIC,>6.25 µg/mL
C=CCOc1c2c(c3c(CCC)cc(=O)oc3c1C(=O)CC)OC(C)(C)CC2,H37Ra,-,-,-,-,-,MIC,>128 µg/mL
Cc1c(C(=O)Nc2ccccc2)[n+](=O)c2ccccc2n1[O-],H37Rv,-,-,-,inside macrophages,-,EC50,<2.79 µg/mL
CO[C@H]1/C=C/O[C@@]2(C)Oc3c(C)c(O)c4c(O)c(ccc4c3C2=O)NC(=O)/C(C)=C\C=C\[C@H](C)[C@H](O)[C@@H](C)[C@@H](O)[C@@H](C)[C@H](OC(C)=O)[C@@H]1C,-,-,-,-,-,-,MIC,0.5 µg/mL
COc1cc2c(cc1O)c[n+](C)c1c3cc4c(cc3ccc21)OCO4,H37Rv,-,-,-,-,BACTEC,MIC,>12.5 µg/mL
CCCCCCCCCN1C(=O)CC(C)(SCC(N)C(=O)O)C1=O,H37Rv,-,-,-,-,-,MIC,≤20 µg/mL
CCc1nc2ccc(Cl)cn2c1C(=O)NCc1ccc(N2CCC(c3ccc(OC(F)(F)F)cc3)CC2)cc1,Erdman,-,-,-,-,resazurin,EC50,0.0015 µM
CC(C)Oc1cc2c[n+](C)c3c4cc5c(cc4ccc3c2cc1O)OCO5,H37Rv,-,-,-,-,BACTEC,MIC,>12.5 µg/mL
COc1ccc(Cc2cnc(N)nc2N)cc1OCCCNc1ccc(S(=O)(=O)c2ccc(N)cc2)cc1,H37Rv,-,-,-,-,-,MIC,2.1 µM
CCCNCC(=O)Nc1ccc(C)c(Cl)c1,H37Rv,-,-,VERO,-,BACTEC,MIC,12.5 µg/mL
C[C@H]1COC2(CCN(c3nc(=O)c4cc(C(F)(F)F)cc([N+](=O)[O-])c4s3)CC2)O1,H37Rv,-,-,-,-,resazurin / fluorescence,MIC,<0.02 µg/mL
CCCCCCCCCN1C(=O)CC(C)(SCCO)C1=O,H37Rv,-,-,-,-,-,MIC,≤20 µg/mL
CN(C)c1ncnc2c1ncn2[C@@H]1O[C@H](CO)[C@@H](N)[C@H]1O,H37Rv,-,6.25 µg/mL,-,-,resazurin,inhibition,-28%
NC(=O)c1cnccn1,20 strains,-,-,-,-,-,MIC90,100 µg/mL
Nn1c(SCC(=O)NCc2ccccc2)nc2ccccc2c1=O,H37Rv,-,-,-,-,resazurin,MIC bound,>6.25 µg/mL
COc1ccc([C@@H]2CC3(C[C@H](c4ccc(OC)cc4)N2)N=c2c(c4c5c6c(C)c(O)c4c(O)c2=NC(=O)/C(C)=C\C=C\[C@H](C)[C@H](O)[C@@H](C)[C@H](O)[C@H](C)[C@H](OC(C)=O)[C@H](C)[C@@H](OC)/C=C/O[C@@](C)(O6)C5=O)N3)cc1,ATCC 35837 (ethambutol-resistant),-,-,-,-,-,MIC,0.02 µg/mL
CO[C@H]1/C=C/O[C@@]2(C)Oc3c(C)c(O)c4c(O)c(cc(OCC(=O)O)c4c3C2=O)NC(=O)/C(C)=C\C=C\[C@H](C)[C@H](O)[C@@H](C)[C@@H](O)[C@@H](C)[C@H](OC(C)=O)[C@@H]1C,-,-,-,-,-,-,MIC,1000 µg/mL
O=C1NOCC1NC(=O)C(F)(F)F,13PI,-,-,-,-,-,MIC,6.25 µg/mL
CO[C@H]1/C=C/O[C@@]2(C)Oc3c(C)c(O)c4c(O)c(c5c(c4c3C2=O)NC2(C[C@@H](c3ccc(F)cc3)N[C@@H](c3ccc(F)cc3)C2)N=5)=NC(=O)/C(C)=C\C=C\[C@H](C)[C@H](O)[C@@H](C)[C@H](O)[C@H](C)[C@H](OC(C)=O)[C@@H]1C,ATCC 35838 (rifampicin- rifabutin-resistant),-,-,-,-,-,MIC,0.5 µg/mL
Nc1cc2c(cc1Cl)[nH]c(=O)c1cc(Cl)ccc12,H37Rv,-,-,-,-,BACTEC,MIC bound,>12.5 µg/mL
CCCc1cc(=O)oc2c(C(=O)CC)c(OCC)c3c(c12)OC(C)(C)CC3,H37Ra,-,-,-,-,-,MIC,>128 µg/mL
CC[C@H]1OC(=O)[C@H](C)[C@@H](O[C@H]2C[C@@](C)(OC)[C@@H](O)[C@H](C)O2)[C@H](C)[C@@H](O[C@@H]2O[C@H](C)C[C@H](N(C)C)[C@H]2O)[C@](C)(O)C[C@@H](C)CN(C)[C@H](C)[C@@H](O)[C@]1(C)O,20 strains,-,-,-,-,-,MIC50,>128 µg/mL
O=C1CCC(N2C(=O)c3ccccc3C2=O)C(=O)N1,H37Rv,-,12.5 µg/mL,-,-,BACTEC,inhibition,7%
CCN(CC)Cc1c2c(O)c3c(O)c(C)c4c(c3c1O)C(=O)[C@@](C)(O/C=C/[C@H](OC)[C@@H](C)[C@@H](OC(C)=O)[C@H](C)[C@H](O)[C@H](C)[C@@H](O)[C@@H](C)/C=C/C=C(/C)C(=O)N2)O4,-,-,-,-,-,-,MIC,0.18 µg/mL
COc1cc(OC)c2c(c[n+](C)c3c4cc5c(cc4ccc23)OCO5)c1OC,H37Rv,-,-,-,-,BACTEC,MIC,>12.5 µg/mL
CCCCCCN1C(=O)C=CC1=O,H37Rv,-,-,-,-,-,MIC,≤20 µg/mL
CC(=O)O[C@@]12CO[C@@H]1C[C@H](O)[C@@]1(C)C(=O)[C@H](OC(=O)N(C)C)C3=C(C)[C@@H](OC(=O)/C=C/c4ccc5ccccc5c4)C[C@@](O)([C@@H](OC(=O)c4ccccc4)[C@H]21)C3(C)C,H37Rv,-,-,-,-,PCR,MIC,2.5 µM
Nc1nc(NCCCc2ccccc2)c(N)c(=O)[nH]1,H37Rv,-,12.5 µg/mL,-,-,BACTEC,inhibition,0%
NC(=O)c1cccn2cc(-c3cccc(-c4cncc(OC[C@H]5CCCO5)c4)c3)nc12,H37Rv (ATCC 27294),-,-,-,-,resazurin,EC50,0.78 µM
CCc1nc(NCCCc2ccccc2)c2cc(C)sc2n1,Erdman,qcrCAB,-,-,-,resazurin,EC50,0.025 µM
O=[N+]([O-])c1ccc(C2=NOC3(N4CCCCC4)CCCCC23)o1,-,-,-,-,-,-,MIC,0.01 µg/mL
O=[N+]([O-])c1ccccc1S(=O)(=O)c1cc(Cl)cc2c1NCCC2,H37Rv,-,-,-,-,BACTEC,MIC bound,>12.5 µg/mL
COc1cc(Cc2cnc(N)nc2N)cc(OC)c1OCCCNc1ccc(S(=O)(=O)c2ccc(C)cc2)cc1,H37Rv,-,-,-,-,-,MIC,28.4 µM
O=C1NC(CCCl)C(=O)NC1CCCl,H37Rv,-,-,-,-,BACTEC,MIC bound,>12.5 µg/mL
Cc1c(C(=O)N2CCN(Cc3ccccc3)CC2)[n+](=O)c2cc(Cl)c(Cl)cc2n1[O-],H37Rv,-,6.25 µg/mL,-,-,-,inhibition,0%
O=[N+]([O-])c1ccc(C2=NOC3(N4CCCC4)CCCCC23)o1,-,-,-,-,-,-,MIC,0.01 µg/mL
CO[C@H]1/C=C/O[C@@]2(C)Oc3c(C)c(O)c4c(O)c(c(C5SCCS5)c(O)c4c3C2=O)NC(=O)/C(C)=C\C=C\[C@H](C)[C@@H]2OC(C)(C)O[C@H]([C@@H](C)[C@H](O)[C@@H]1C)[C@@H]2C,H37Rv,-,-,VERO,-,BACTEC,MIC,12.5 µg/mL
Cc1c(C(=O)N2CCN(c3ccc([N+](=O)[O-])cc3)CC2)[n+](=O)c2ccccc2n1[O-],H37Rv,-,-,-,-,-,MIC,>6.25 µg/mL
CC(=O)C1CC(c2ccc([N+](=O)[O-])o2)=NO1,-,-,-,-,-,-,MIC,3 µg/mL
COc1cc2ccc3c4c(OC)cc(OC)c(OC)c4c[n+](C)c3c2cc1OC,H37Rv,-,-,-,-,BACTEC,MIC,<12.5 µg/mL
NC1CCCCCCC1=O,H37Rv,-,-,-,-,BACTEC,MIC bound,>12.5 µg/mL
COc1ccc(Cc2cnc(N)nc2N)cc1OCc1ccc(S(=O)(=O)c2ccc(N)cc2)cc1,H37Rv,-,-,-,-,-,MIC,61.1 µM
CCc1nc(NCc2ccccc2)c2cc(C)sc2n1,Erdman,-,-,-,-,resazurin,EC50,11 µM
CCCCCCCCCN1C(=O)CC(SCCNC(=O)c2ccc(OCCCCCC)cc2)C1=O,Clinical isolate (isoniazid-resistant),-,-,-,-,-,MIC,≤20 µg/mL
CCOC(=O)/C(C#N)=C/c1ccc(-c2cc(C(F)(F)F)cc(C(F)(F)F)c2)o1,H37Rv,-,12.5 µg/mL,-,-,BACTEC,inhibition,50%
CCCc1cc(=O)oc2c(C(=O)CC)c(OC(C)=O)c3c(c12)OC(C)(C)CC3,H37Ra,-,-,-,-,-,MIC,>128 µg/mL
Cc1cc(C)nc(NS(=O)(=O)c2ccc(NC(=O)c3cccnc3Nc3cccc(Cl)c3)cc2)n1,H37Rv,-,-,-,-,BACTEC,MIC,≥12.5 µg/mL
COc1cc(Cc2cnc(N)nc2N)cc(OC)c1OCCCNc1ccc(S(=O)(=O)c2ccc(N)cc2)cc1,H37Rv,-,-,-,-,-,MIC,4.1 µM
C/C=C/COc1cc2c(c3oc(=O)cc(CCC)c13)C(O)[C@@H](C)[C@@H](C)O2,H37Ra,-,-,-,-,-,MBC,>64 µg/mL
C=CCn1c(NC2=C(Cl)C(=O)c3ccccc3C2=O)cc(=O)[nH]c1=O,H37Rv,-,12.5 µg/mL,-,-,BACTEC,inhibition,-16%
C[n+]1cc2c3c(ccc2c2ccc4cc5c(cc4c21)OCO5)OCO3,H37Rv,-,12.5 µg/mL,-,-,BACTEC,inhibition,94%
Cc1cc2ncn(CC(=O)NN)c2cc1C,H37Rv,-,-,-,-,BACTEC,MIC bound,>12.5 µg/mL
CO[C@H]1/C=C/O[C@@]2(C)Oc3c(C)c(O)c4c(O)c(c(SCCN)c(O)c4c3C2=O)NC(=O)/C(C)=C\C=C\[C@H](C)[C@H](O)[C@@H](C)[C@@H](O)[C@@H](C)[C@H](OC(C)=O)[C@@H]1C,-,-,-,-,-,-,MIC,0.5 µg/mL
CO[C@H]1/C=C/O[C@@]2(C)Oc3c(C)c(O)c4c(O)c(c5c(c4c3C2=O)NC2(C[C@@H](c3ccccc3)N[C@@H](c3ccccc3)C2)N=5)=NC(=O)/C(C)=C\C=C\[C@H](C)[C@H](O)[C@@H](C)[C@H](O)[C@H](C)[C@H](OC(C)=O)[C@@H]1C,H37Rv,-,-,-,-,-,MIC,0.02 µg/mL
CC(NC(=O)c1cccc2c1Oc1ccccc1S2)C(=O)O,H37Rv,-,-,-,-,BACTEC,MIC bound,>12.5 µg/mL
CO[C@H]1/C=C/O[C@@]2(C)Oc3c(C)c(O)c4c(O)c(cc(O)c4c3C2=O)NC(=O)/C(C)=C\C=C\[C@H](C)[C@H](O)[C@@H](C)[C@@H](O)[C@@H](C)[C@H](OC(C)=O)[C@@H]1C,-,-,-,-,-,-,MIC,25 µg/mL
CCN(CC)CCNc1ccc(CO)c2oc3ccc(OS(=O)(=O)c4ccc(C)cc4)cc3c(=O)c12,EMB-R,-,-,-,-,-,MIC,6.3 µg/mL
C=C1CC(=O)N(CCCCCCCCC)C1=O,H37Rv,-,-,-,-,-,MIC,≤20 µg/mL
Cc1ccc(S(=O)(=O)[O-])cc1.Cc1ccc(S(=O)(=O)[O-])cc1.Cn1c(COc2ccc(/C=N/NC(=O)CCC(=O)N/N=C/c3ccc(OCc4c[n+]5ccccc5n4C)cc3)cc2)c[n+]2ccccc12,H37Rv,-,-,-,-,BACTEC,MIC bound,>12.5 µg/mL
CCc1conc1-c1ccc([N+](=O)[O-])o1,-,-,-,-,-,-,MIC,0.3 µg/mL